The values that follow come from publication PMC3422170.

For at least one entry, the source does not settle the construct or the ends of the probe. Protein sequences can lack the tags named with them.

In this data set the target is T1, DBP (DNA-binding protein) (Bombyx mori nuclear polyhedrosis virus (BmNPV)) (UniProt P24649).
T1 sequence (looked up, limits assumed): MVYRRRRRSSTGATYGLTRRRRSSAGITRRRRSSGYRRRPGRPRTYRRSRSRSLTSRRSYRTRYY
As to the kind of experiment: EMSA. The following applies: 100 ng protein; recombinant protein; single-stranded DNA.

Consider “CCGAAGCTTGCAAATAAATAAGTATTGCAAATAAATAAGTATTGCAAATAAATAAGTATTCTCGAGGCCATGCCAT [3rep ssDNA (polh promoter, 3 repeats)]”, for which the binding result is “binds”.
